Pooled drug test results. Numbers come from NIAID ChemDB, via PubChem.

Shared fields: tests in culture; agent: HIV-1; endpoint: inhibition

Inhibition is in % at the dose shown (toxicity tests: loss of growth or viability). An empty or dashed field is not shown. Lines come from different laboratories, so protocols vary.

structure	dose	changes	method	cell line	conditions	strain	result
CCCCCCCCCCCCCCCC(=O)N(CCCCCCCCCCC(=O)O)CC(O)C(O)C(O[C@@H]1O[C@H](CO)[C@H](O)[C@H](O)[C@H]1O)C(O)CO	246 µM	-	XTT / p24	PBMC	-	-	100%
O=S(=O)(O)c1ccc(-c2c3nc(c(-c4ccc(S(=O)(=O)O)cc4)c4ccc([nH]4)c(-c4ccc(S(=O)(=O)O)cc4)c4nc(c(-c5ccccc5)c5ccc2[nH]5)C=C4)C=C3)cc1	5 µg/mL	-	β-galactosidase	MAGI	-	IIIB	48%
COc1ccccc1C1=CC(c2cnc(C(C)C)cn2)SC(N)=N1	10 µg/mL	-	p24 / ELISA / antigen	TZM-bl	-	NL4-3	17%
O=c1c(-c2n[nH]c(=S)o2)cnc2ccccn12	100 µM	-	single cycle	HeLa	-	NL4-3	11%
Cc1cn([C@@H]2C[C@H](CO)N(O)C2)c(=O)[nH]c1=O	100 µM	-	-	-	-	-	0%
CCc1c(Sc2ccccc2)n(COCc2ccccc2)c(=O)[nH]c1=O	0.015 µM	-	p24	MT-4	-	A012D	90%
Cc1cn([C@@H]2C[C@H](CO)N(N=O)C2)c(=O)[nH]c1=O	100 µM	-	-	-	-	-	0%
Nc1ccn([C@@H]2CS[C@H](CO)O2)c(=O)n1	0.1 µM	-	syncytia	MT-4	-	BRU	100%
CC1(C)[C@@H](O[C@H]2O[C@H](C(=O)O)[C@@H](O)[C@H](O)[C@H]2O[C@@H]2O[C@H](C(=O)O)[C@@H](O)[C@H](O)[C@H]2O)CC[C@]2(C)[C@H]3C(=O)C=C4[C@@H]5C[C@@](C)(CO)CC[C@]5(C)CC[C@@]4(C)[C@]3(C)CC[C@@H]12	160 µM	-	cytopathic effect / MTT	MT-4	-	IIIB	57.4%
NCCSSCCN	50 µM	-	p24	PBL	-	IIIB	47%
COc1c(C(=O)NCc2ccc(C)cc2)ccc2c1C(=O)N(C)C(c1ccccn1)N2	10 µM	-	MTT	TZM-bl	-	-	9.9%
Cc1ccc(-c2ccc3c(c2)C=C(C(=O)Nc2ccc(C[N+](C)(C)C4CCOCC4)cc2)CCC3)cc1	1 µM	-	p24	PBMC	-	TB2 CLADE C	99.3%
Nc1ccn([C@H]2C=C(CO)[C@@H](CO)S2)c(=O)n1	100 µg/mL	-	-	MT-4	-	-	0%
O=C(Nc1ncc(Cl)s1)c1ccccc1O	10 µg/mL	-	p24	PBMC	-	BaL	96.5%
O=C(Cn1c(=O)oc2ccccc21)NNC(=O)c1ccccc1	100 µM	-	p24 / ELISA	HeLa	-	NL4-3	33%
COC(=O)N1C=CC(C#N)C(C(C)=O)=C1	50 µM	-	syncytia	MOLT-3	-	IIIB	0%
Nc1nc(=O)n([C@@H]2CC[C@H](CO)O2)cc1F	1.2 µM	-	cytopathic effect / MTT	MT-2	-	IIIB	96%
Cc1cccc(C(=O)NNC(=O)Cn2c(=O)oc3ccccc32)c1	100 µM	-	p24 / ELISA	HeLa	-	NL4-3	9%
Cc1cn([C@H]2C[C@H](O)[C@@H](C[N+](C)(C)CCCO)O2)c(=O)[nH]c1=O	100 µM	-	plaque count / syncytia	CEM + CEM-SS	-	IIIB	31%
CC1=C(C(=O)OCc2ccccc2)C(c2cccc([N+](=O)[O-])c2)NC(=O)N1	100 µM	-	p24 / ELISA	HEK293T	-	-	52.2%
CC(C)(C)C(=O)OC[C@@H]1CC[C@H](n2ccc(N)nc2=O)O1	6.4 µM	-	cytopathic effect	-	-	-	88%
CC1=C(/C=C/C=C/C=C/C=C/C(=O)OC[C@H]2O[C@@H](n3ccc(N)nc3=O)CS2)C(C)(C)CCC1	100 µM	-	syncytia	MT-4	-	BRU	100%
COc1cc(N=Nc2cc(S(=O)(=O)O)cc3cc(S(=O)(=O)O)cc(O)c23)c(C)cc1NC(=O)Nc1cc(C)c(N=Nc2cc(S(=O)(=O)O)cc3cc(S(=O)(=O)O)cc(O)c23)cc1OC	100 µM	-	RT activity	PBL	-	LAV-BR	97%
F[C@@H]1CCN(c2ccnc(N3CC[C@@H](F)C3)n2)C1	10 µM	-	visual reading / cell fusion	CEM-SS	-	IIIB	0%
O=C(Cn1c(=O)oc2ccccc21)NNC(=O)c1ccc(F)cc1	100 µM	-	p24 / ELISA	HeLa	-	NL4-3	7%
O=S(=O)(O)c1ccc(-c2c3nc(c(-c4ccc(S(=O)(=O)O)cc4)c4ccc([nH]4)c(-c4ccc(S(=O)(=O)O)cc4)c4nc(c(-c5ccc(S(=O)(=O)O)cc5)c5ccc2[nH]5)C=C4)C=C3)cc1	50 µg/mL	-	β-galactosidase	MAGI	-	IIIB	93%
CCN(CC)CCCC(C)Nc1ccnc2cc(Cl)ccc12	100 µM	-	p24	U-937	-	-	65.83%
CCOc1ccc(Cl)cc1-c1oc2ccccc2c(=O)c1O	10 µM	-	p24 / ELISA	PM1	-	BaL	0%
CC(C)c1cnc(C2C=C(c3ccccc3)N=C(N)S2)cn1	10 µg/mL	-	p24 / ELISA / antigen	TZM-bl	-	NL4-3	12%
OC[C@H]1O[C@@H](n2cnc3c(N4CC[C@@H](O)C4)ncnc32)C[C@H]1O	10 µM	-	visual reading / cell fusion	CEM-SS	-	IIIB	0%
CC(C)C[C@H](NC(=O)[C@@H](O)[C@H](N)Cc1ccccc1)C(=O)O	120 µg/mL	-	syncytia	HuT-78 + HUT 78	-	IIIB	89%
COc1cc(/C=N/N=C(\N)NO)c(Cl)cc1O.Cc1ccc(S(=O)(=O)O)cc1	10 µg/mL	-	cytopathic effect	CEM	-	IIIB	0%
O=C1CC(C#CC2CC2)(C(F)(F)F)c2cc(Cl)ccc2N1	0.177 µM	RT-K103N	-	-	-	-	90%
Nc1ccn([C@H]2CC[C@@H](CO)O2)c(=O)n1	16 µM	-	cytopathic effect	-	-	-	99%
N#CC1C=Cc2ccccc2N1C(=O)c1ccc(Cl)cc1	10 µM	-	p24	PBMC	-	D34	100%
O=C(Nc1ccc(Cl)cc1)N(CCCN1CCC(Cc2ccccc2)CC1)c1ccccc1	0.16 µM	-	β-galactosidase	MAGI + MT-4	-	BaL	98%
CN(C)c1ccc(Nc2c3ccc(NC(=O)CCN4CCCC4)cc3nc3cc(NC(=O)CCN4CCCC4)ccc23)cc1	0.067 µM	-	p24 / ELISA / antigen	MT-4	-	IIIB	35%
COc1ccc(/C=N/N=C(\N)NO)c(OC)c1C.Cc1ccc(S(=O)(=O)O)cc1	10 µg/mL	-	cytopathic effect	CEM	-	IIIB	46.6%
CC(C)(C)C(=O)Nc1ccn([C@H]2CC[C@@H](COC(=O)C(C)(C)C)O2)c(=O)n1	25 µM	-	cytopathic effect	-	-	-	0%
COc1c(C(=O)NCc2ccc(C)cc2)ccc2c1C(=O)N(C)C(c1ccc(F)cc1)N2	10 µM	-	MTT	TZM-bl	-	-	31%
CC1(C)[C@@H](O[C@H]2O[C@H](CO)[C@@H](O)[C@H](O)[C@H]2O[C@@H]2O[C@H](CO)[C@@H](O)[C@H](O)[C@H]2O)CC[C@]2(C)C3C=CC4=C5C[C@@](C)(CO)CC[C@]5(C)CC[C@@]4(C)[C@]3(C)CC[C@@H]12	160 µM	-	cytopathic effect / MTT	MT-4	-	IIIB	56.7%
N#CC1C=Cc2c(ccc3ccccc23)N1C(=O)c1ccccc1	50 µM	-	syncytia	MOLT-3	-	IIIB	0%
CN(C)CCCNC(=O)CCNC(=O)c1cc(NC(=O)c2nc(NC(=O)CCNC(=O)c3cc(NC(=O)c4nc(NC(=O)CCCNC(=O)c5cc(NC(=O)c6nc(NC(=O)CCNC(=O)c7cc(NC(=O)c8nccn8C)cn7C)cn6C)cn5C)cn4C)cn3C)cn2C)cn1C	1 µM	-	p24	PBMC	-	WEAU 1.6	80%
CN1[C@H](CC(=O)O)C[C@@H](O)[C@@H]1CO	10 µM	-	-	293T	pseudotyped	-	22.4%
CC1=C(C(=O)O)C(c2cccc(N)c2)NC(=O)N1	100 µM	-	p24 / ELISA	HEK293T	-	-	41.2%
COc1ccc(/C=N/N=C(\N)NO)cc1F	10 µg/mL	-	cytopathic effect	CEM	-	IIIB	61%
Cc1cn([C@H]2C=C(CO)[C@@H](CO)S2)c(=O)[nH]c1=O	100 µg/mL	-	-	MT-4	-	-	0%
O=C(Nc1ncnc2c1ncn2[C@@H]1O[C@H](CO)[C@@H](OC(=O)c2ccccc2)[C@H]1OC(=O)c1ccccc1)c1ccccc1	10 µM	-	β-galactosidase	HeLaP4	-	NL4-3	100%
COc1c(C(=O)NCc2ccc(C)cc2)ccc2c1C(=O)N(C)C(c1ccco1)N2	10 µM	-	MTT	TZM-bl	-	-	8.1%
CC(C)c1cnc(C2C=C(c3ccc(F)cc3)N=C(N)S2)cn1	10 µg/mL	-	p24 / ELISA / antigen	TZM-bl	-	NL4-3	80%
CCCCCCCCCCCC(=O)N(CCCCCCCCCCC(=O)O)CC(O)C(O)C(O[C@@H]1O[C@H](CO)[C@H](O)[C@H](O)[C@H]1O)C(O)CO	201 µM	-	syncytia	C8166	-	LAI	100%
COc1c(C)c2c(c(O)c1C/C=C(\C)CCC(=O)O)C(=O)OC2	1 µM	-	RT activity	Macrophage + Monocytes/macrophages	-	SF162	80%
CC1=C(/C=C/C=C/C=C/C=C/C(=O)Nc2ccn([C@H]3CS[C@@H](CO)O3)c(=O)n2)C(C)(C)CCC1	10 µM	-	syncytia	MT-4	-	BRU	100%
CO[C@H]1C[C@@H]2CC[C@@H](C)[C@@](O)(O2)C(=O)C(=O)N2CCCC[C@H]2C(=O)O[C@H]([C@H](C)C[C@@H]2CC[C@@H](O)[C@H](OC)C2)CC(=O)[C@H](C)/C=C(\C)[C@@H](O)[C@@H](OC)C(=O)[C@H](C)C[C@H](C)/C=C/C=C/C=C/1C	0.00001 µM	-	p24	Macrophage + Monocytes/macrophages	-	SF162 R5	45%
O=c1c(-c2nnc(-c3ccc(F)cc3)s2)cnc2ccccn12	100 µM	-	single cycle	HeLa	-	NL4-3	48%
O=c1oc2ccccc2n1Cc1nnc(Nc2ccccc2)s1	100 µM	-	p24 / ELISA	HeLa	-	NL4-3	84%
COc1ccc(/C=N/N=C(/N)NO)cc1OC	32 µg/mL	-	cytopathic effect	CEM	-	IIIB	65%
COC(=O)N1C=CC=C(C(C)=O)C1C#N	50 µM	-	syncytia	MOLT-3	-	IIIB	0%
O=c1ccnc(N2CCCC2)[nH]1	10 µM	-	XTT / cell fusion	CEM-SS	-	IIIB	0%
O=P(O)(O)OP(=O)(O)OP(=O)(O)OP(=O)(O)O	100 µg/mL	-	p24	H9	-	IIIB	21%
O=c1nc(N2CCCC2)ccn1[C@H]1C[C@@H](O)[C@@H](CO)O1	10 µM	-	XTT / cell fusion	CEM-SS	-	IIIB	3.6%
CC1=C(C(=O)OCc2ccccc2)C(c2ccccc2Cl)NC(=O)N1	100 µM	-	p24 / ELISA	HEK293T	-	-	18.7%
O=C(O)[C@H]1O[C@@H](Oc2cc3oc(-c4ccccc4)cc(=O)c3c(O)c2O)[C@H](O)[C@@H](O)[C@@H]1O	400 µM	-	-	HOS-CD5-CCR5 + HOS	-	ENV(BAL31)	80%
Nc1nc(NC2CC2)c2ncn([C@H]3C=C[C@@H](CO)C3)c2n1	0.25 µM	-	p24	PBMC	-	MSO Clinical isolate	59%
C[C@H](CCCC(C)(C)O)[C@H]1CC[C@H]2[C@@H]3CC=C4C[C@@H](O)CC[C@]4(C)[C@H]3CC[C@]12C	1 µM	-	p24	PBMC	-	NL4-3	80%
COc1cc(O)c(CC=C(C)C)c(O)c1C(=O)/C=C/c1ccc(O)cc1	121.8 µM	-	p24	H9	-	IIIB	54.2%
Nc1nc(N2C[C@H](O)[C@@H](O)C2)c2ncn([C@H]3C[C@@H](O)[C@@H](CO)O3)c2n1	10 µM	-	visual reading / cell fusion	CEM-SS	-	IIIB	1.2%
Nc1ccn(C2C[C@H](CO)[C@@H](CO)C2)c(=O)n1	10 µg/mL	-	RT activity	H9	-	IIIB	39%
Nc1ccn([C@H]2CC[C@@H](CO)O2)c(=O)n1	0.4 µM	-	cytopathic effect / MTT	MT-2	-	IIIB	25%
Cc1cc(=O)c2c(O)c3c(O)cc(O)c4c5c(O)cc(O)c6c(O)c7c(=O)cc(C)c8c1c2c(c34)c(c65)c78	0.25 µg/mL	-	ELISA	CEM	7 d	-	97%
CSc1cc(N)nc(S[C@@H](C)c2cc3ccoc3cn2)n1	0.02 µM	RT-P236L	p24	MT-4	-	MF DLV-resistant (RT P236L)	90%
C=C(C)OC(=O)N1c2ccc3ccccc3c2C=CC1C#N	50 µM	-	syncytia	MOLT-3	-	IIIB	40%
C=C(C)[C@@H]1CC[C@]2(C(=O)NCCCCCCCC(=O)N[C@@H](CC(C)C)[C@@H](O)CC(=O)O)CC[C@]3(C)[C@H](CC[C@@H]4[C@@]5(C)CC[C@H](O)C(C)(C)[C@@H]5CC[C@]43C)[C@@H]12	10 µM	R22A I84S	syncytia	HeLa P4 + HeLa	-	LAI-R(GP41-R22A I84S)	31%
CC(C)c1cnc(C2C=C(c3ccccc3[N+](=O)[O-])N=C(N)S2)cn1	10 µg/mL	-	p24 / ELISA / antigen	TZM-bl	-	NL4-3	83%
O=c1c(-c2nnc(-c3ccc(F)cc3)o2)cnc2ccccn12	100 µM	-	single cycle	HeLa	-	NL4-3	18%
NC(=O)n1c(O)c(C(=O)c2cccs2)c2cc(Cl)ccc21	25 µM	-	p24	Jurkat cells	-	MN	92%